The numbers were not newly measured in patent publication US7750031B2, “Caffeic acid derivative and composition containing the same” (Thefaceshop Korea Co., Ltd., priority 2007, dated 2010), which cites them from elsewhere.

For this series, the system named is aflatoxin. To be noted: cited from earlier work.

In the case of `O=C(O)/C=C/c1ccc(O)c(O)c1` [caffeic acid], the “decrease of the production of aflatoxin” value is on record as “more than 95%”.
